# Assay results as given in patent publication US20190134039A1, “ANTIVIRAL JAK INHIBITORS USEFUL IN TREATING OR PREVENTING RETROVIRAL AND OTHER VIRAL INFECTIONS” (EMORY UNIVERSITY, priority 2011, published 2019).
# Like-named read-outs stand apart in the source and are kept apart here.
# Assays:
# HIV-1LAI = system: HIV-1LAI
# Description: PBM cells were isolated as follows: Lymphocytes were isolated from buffy coats derived from healthy donors obtained from Life South Laboratories (Dunwoody, Ga.). Activated lymphocytes were maintained for 72 hrs in medium that was supplemented with […] phytohemagglutinin (PHA) (Cape Cod associates, East Falmouth, Mass.). Media was comprised of RPMI media supplemented with 20% fetal calf serum, 1% penicillin/streptomyocin and 2% L-glutamine (Sigma Aldrich, San Jose, Calif.).
# PBM cell infections: Testing was performed in duplicate with at least 3 independent assays. Cells were incubated in RPMI medium (HyClone, Logan, Utah) containing HR-IL2 (26.5 units/ml) and 20% fetal calf serum. Infections were performed by adding HIV-1LA1 followed by a further incubation at 37° C., 5% CO2, 1 hr prior to addition of drugs. Assays were performed in 24 well plates (BD Biosciences, Franklin Lakes, N.J.). One ml of supernatant was collected after 5 days in culture and then centrifuged at 12,000 rpm for 2 hr at 4° C. in a Jouan Br43i (Thermo Electron Corp., Marietta, Ohio). The product of the RT assay was quantified using a Packard harvester and direct beta counter and the data were analyzed as previously described (Schinazi et al, 1990).
# [1] = calculated using Propidium Iodide toxicity values
structure (smiles),measurement,setting,value
"C[C@@H]1CCN(C(=O)CC#N)C[C@@H]1N(C)c1ncnc2[nH]ccc12 [Tofacitinib, 3-{(3R,4R)-4 methyl-3-[methyl-(7H-pyrrolo[2,3-d]pyrimidin-4-yl)-amino]-piperidin-1-yl}-3-oxo-propionitrile]",TI for antiviral potency against acute HIV-1 infection in PBM cells versus toxicity,HIV-1LAI; calculated using MTT assay toxicity values for PHA + IL-2 stimulated PBM cells,1.0
same,TI for antiviral potency against acute HIV-1 infection in PBM cells versus toxicity,HIV-1LAI; calculated using MTT assay toxicity values for PHA stimulated PBM cells,8.0
same,TI for antiviral potency against acute HIV-1 infection in PBM cells versus toxicity,HIV-1LAI; [1],>100
same,TI for antiviral potency against acute HIV-2 infection in PBM cells versus toxicity,HIV-2; calculated using MTT assay toxicity values,18.5
same,TI for antiviral potency against acute HIV-2 infection in PBM cells versus toxicity,HIV-2; [1],>50
